Reference: patent publication US20120294879A1, “CONSENSUS SEQUENCE FOR INFLUENZA A VIRUS” (priority 2009, published 2012)

Key:
[1] = target: HLA-DR3 (HLA-DRA*0101 and -DRB1*0301), as expressed in HLA-DR3 transgenic mice (human); assay: cell-based or functional assay
[2] = target: HLA-DR4 (HLA-DRA*0101 and -DRB1*0401), as expressed in HLA-DR4 transgenic mice (human); assay: cell-based or functional assay
[3] = system: splenocytes of HLA-DR4 (DRB1*0401) transgenic mice; type: cell-based; parameters: key: — represents no positive ELISpot response
[4] = system: splenocytes of HLA-DR3 (DRB1*0301) transgenic mice; type: cell-based; parameters: key: — represents no positive ELISpot response
[5] = system: splenocytes of HLA-DR2 (DRB1*1501) transgenic mice; type: cell-based; parameters: key: — represents no positive ELISpot response
[6] = system: splenocytes of HLA-B7 (B*0702) transgenic mice; type: cell-based; parameters: key: — represents no positive ELISpot response

Substance	IFN-γ ELISpot at 10 µg/ml peptide, splenocytes of immunized HLA transgenic mice [1]	lowest concentration of peptide giving positive ELISpot response [1]	IFN-γ ELISpot at 10 µg/ml peptide, splenocytes of immunized HLA transgenic mice [2]	lowest concentration of peptide giving positive ELISpot response [2]	DR4: average IFN-γ spots forming cells per million splenocytes [3]	DR3: average IFN-γ spots forming cells per million splenocytes [4]	DR2: average IFN-γ spots forming cells per million splenocytes [5]	B7: average IFN-γ spots forming cells per million splenocytes [6]
PB1 548-564 peptide of influenza virus A/New York/348/2003 (H1N1)	230	0.1 µg/mL	97	0.1 µg/mL				
TFEFTSFFYRYGFVANF					—	—	—	—
